Compound potency records, mixed from different reports. Data source: NIAID ChemDB in PubChem.

Common to all: whole-cell or culture tests; organism: HIV-2; cell line: MT-4; measure: EC50

Blank or dashed fields: not listed here. ECn is the concentration giving n% inhibition of infection, replication or growth. Rows are shuffled and stem from different studies.

smiles | strain or isolate | method | setting | value
N#Cc1ccc(Nc2nc(Oc3c(Cl)cc(Cl)cc3Cl)ncc2[N+](=O)[O-])cc1 | ROD | MTT |  | >25.2 µM
C1CNCCNCCCN[C@@H]([C@H]2CNCCCNCCNCCCN2)CNC1 | ROD | cytopathic effect / MTT |  | 0.62 µg/mL
COc1c(O)c(Br)c2c(c1OC)-c1c(c(Br)c(O)c(OC)c1OC)C[C@H](C)[C@H](C)C2 | CBL-20 | cytopathic effect / MTT |  | >18 µM
CC(C)[C@H](NC(=O)[C@H](CCCN=C(N)N)NC(=O)N[C@@H](Cc1ccccc1)C(=O)O)C(=O)N[C@@H](C=O)Cc1ccccc1 | ROD | cytopathic effect / MTT |  | >10 µM
Cc1cn([C@H]2C[C@H](N=[N+]=[N-])[C@@H](CO)O2)c(=O)[nH]c1=O | ROD | cytopathic effect / MTT |  | 0.106 µM
CCN(C)c1nc(N)nc2c1ncn2CCOCP(=O)(O)O | ROD | cytopathic effect / MTT |  | 0.11 µg/mL
Nc1nc(-c2ccc(Br)cc2Br)c(SCC(=O)Nc2ccccc2F)s1 | ROD | MTT |  | >24.94 µM
Cc1cc(Br)cc(C)c1Oc1ncc(NC(=O)C(F)(F)F)c(Nc2ccc(C#N)cc2)n1 | ROD | MTT |  | 36.04 µM
Nc1ccn([C@H]2CC[C@@H](CO)O2)c(=O)n1 | ROD | MTT |  | 0.49 µg/mL
Cc1ccccc1NC(=O)CSc1sc(Cl)nc1-c1ccc(Br)cc1Br | ROD | MTT |  | >26.94 µM
C[C@H](C[n+]1c[nH]c2c(Nc3ccoc3)nc(N)nc21)OCP(=O)(O)O | ROD | cytopathic effect / MTT |  | 7.74 ± 1.33 µg/mL
Cc1cccc(N2C(=O)CSC2c2cccnc2)n1 | ROD | cytopathic effect |  | 84 µM
C=C(COCP(=O)(O)O)Cn1cnc2c(=O)[nH]c(N)nc21 | ROD |  |  | 6.3 µM
CSc1ccc(OP(=O)(OC[C@@H]2C=C[C@H](n3cnc4c(=O)[nH]cnc43)O2)OC[C@@H]2C=C[C@H](n3cnc4c(=O)[nH]cnc43)O2)cc1 | ROD | cytopathic effect / trypan blue |  | >250 µM
CCn1cnc2ncn([C@@H]3O[C@H](CO[Si](C)(C)C(C)(C)C)C4(OS(=O)(=O)C=C4N)[C@H]3O[Si](C)(C)C(C)(C)C)c2c1=O | ROD | trypan blue |  | >100 µg/mL
Cc1cn([C@H]2C[C@H](N=[N+]=[N-])[C@@H](CO)O2)c(=O)[nH]c1=O | ROD | MTT |  | 0.011 µM
Fc1ccc(Cl)c(C2OCc3nc4ccccc4n32)c1 | ROD | cytopathic effect |  | >62 µM
Cc1cccc(N2C(=O)CSC2c2ccc(N(C)C)cc2)n1 | ROD | cytopathic effect |  | 102 µM
Cc1cc([N+](=O)[O-])ccc1NC(=O)CSc1sc(Cl)nc1-c1ccc(Br)cc1Br | ROD | MTT |  | >127.4 µM
Cc1cc(C)c(Oc2ncc(N)c(Nc3ccc(C#N)cc3)n2)c(C)c1 | ROD | MTT |  | >10.45 µM
CC(C)=CCN1Cc2cccc3[nH]c(=S)n(c23)C[C@@H]1C | ROD | cytopathic effect / MTT |  | >105 µM
CSc1ccc(OP(=O)(OC[C@@H]2C=C[C@H](n3cnc4c(N)ncnc43)O2)OC[C@@H]2C=C[C@H](n3cnc4c(N)ncnc43)O2)cc1 | ROD | cytopathic effect / trypan blue |  | 89 µM
Nc1nc(Nc2ccccc2)c2ncn(CCOCP(=O)(O)O)c2n1 | ROD | cytopathic effect / MTT |  | 35.1 µg/mL
OC[C@H]1N[C@H](CO)[C@@H](O)[C@@H]1O | ROD | cytopathic effect / MTT |  | >250 µg/mL
Nc1nc(NC2CCCC2)c2ncn(CCOCP(=O)(O)O)c2n1 | ROD | cytopathic effect / MTT |  | >0.8 µg/mL
Cc1cc(C)c(Oc2ncc([N+](=O)[O-])c(Nc3ccc(C#N)cc3)n2)c(C)c1 | ROD | MTT |  | ≥252 µM
CS(=O)(=O)c1ccc(OP(=O)(OC[C@@H]2C=C[C@H](n3cnc4c(=O)[nH]cnc43)O2)OC[C@@H]2C=C[C@H](n3cnc4c(=O)[nH]cnc43)O2)cc1 | ROD | cytopathic effect / trypan blue |  | >250 µM
O=C(CSc1sc(Cl)nc1-c1ccc(Br)cc1Br)Nc1ccccc1Br | ROD | MTT |  | >8.25 µM
CSc1ccc(OP(=O)(OC[C@@H]2C=C[C@H](n3cc(C)c(=O)[nH]c3=O)O2)OC[C@@H]2C=C[C@H](n3cc(C)c(=O)[nH]c3=O)O2)cc1 | ROD | cytopathic effect / trypan blue |  | 45 µM
CC(=O)c1ccc(C)cc1NC(C(N)=O)c1c(Cl)cccc1Cl | EHO | MTT |  | >137 µM
CCCCNc1nc(N)nc2c1ncn2CCOCP(=O)(O)O | ROD | cytopathic effect / MTT |  | 2.3 µg/mL
N#Cc1ccc(Nc2nc(Oc3c(Cl)cc(Cl)cc3Cl)ncc2NC(=O)C(F)(F)F)cc1 | ROD | MTT |  | >5.57 µM
CS(=O)(=O)c1ccc(OP(=O)(OC[C@@H]2CC[C@H](n3cnc4c(N)ncnc43)O2)OC[C@@H]2CC[C@H](n3cnc4c(N)ncnc43)O2)cc1 | ROD | cytopathic effect / trypan blue |  | 84 µM
CC(C)(C)[Si](C)(C)OC[C@H]1O[C@@H](n2cnc3[nH]c(=O)[nH]c(=O)c32)[C@H](O[Si](C)(C)C(C)(C)C)C12OS(=O)(=O)C=C2N | ROD | trypan blue |  | >4 µg/mL
Cc1cc(C)c(Oc2ncc([N+](=O)[O-])c(Nc3ccc(C#N)cc3)n2)c(C)c1 | ROD | MTT |  | >252 µM
Cc1cn([C@@H]2O[C@H](CO)C3(OS(=O)(=O)C=C3N)[C@H]2O[Si](C)(C)C(C)(C)C)c(=O)[nH]c1=O | ROD | cytopathic effect / trypan blue |  | >100 µM
CC(C)[C@H](NC(=O)N(C)Cc1ccccn1)C(=O)N[C@@H](Cc1ccccc1)[C@H](O)[C@H](O)[C@H](Cc1ccccc1)NC(=O)[C@@H](NC(=O)N(C)Cc1ccccn1)C(C)C | MS | cytopathic effect / MTT |  | 0.24 µM
CCOP(=O)(N[C@@H](C)C(=O)OC)OC[C@H]1O[C@@H](n2cc(C)c(=O)[nH]c2=O)C[C@@H]1N=[N+]=[N-] | ROD | cytopathic effect / MTT |  | 0.64 µg/mL
Cc1nc(N2C(=O)CSC2c2c(F)cccc2Cl)ccc1Br | ROD | cytopathic effect |  | 10.7 µM
O=c1ccn([C@H]2C=C[C@@H](CO)O2)c(=O)[nH]1 | ROD | cytopathic effect / trypan blue |  | >20 µM
Cc1cn([C@H]2C[C@H](N=[N+]=[N-])[C@@H](CO)O2)c(=O)[nH]c1=O | EHO | cytopathic effect / MTS |  | 0.0004 µM
O=C(CSc1sc(Cl)nc1-c1ccc(Br)cc1Br)Nc1ccc(Cl)cc1Cl | ROD | MTT |  | >159 µM
CSc1ccc(OP(=O)(OC[C@@H]2CC[C@H](n3cnc4c(N)ncnc43)O2)OC[C@@H]2CC[C@H](n3cnc4c(N)ncnc43)O2)cc1 | ROD | cytopathic effect / trypan blue |  | 66 µM
Nc1ncnc2c1ncn2CCOCP(=O)(O)O | ROD |  |  | 8 µM
Cc1cc(C#N)cc(C)c1Oc1ncc([N+](=O)[O-])c(Nc2ccc(C#N)cc2)n1 | ROD | MTT |  | >274 µM
N#Cc1ccc(Nc2nc(Oc3c(Br)cc(Br)cc3Br)ncc2[N+](=O)[O-])cc1 | ROD | MTT |  | >20.4 µM
COC(=O)[C@H](C)NP(=O)(OC[C@@H]1C=C[C@H](n2cc(C)c(=O)[nH]c2=O)O1)Oc1ccccc1 | ROD | trypan blue | 5 d | 0.07 µM
Nc1ccccc1NC(=O)CSc1sc(Cl)nc1-c1ccc(Br)cc1Br | ROD | MTT |  | >109 µM
C=CCn1c(=O)c(C)cn([C@@H]2O[C@H](CO[Si](C)(C)C(C)(C)C)C3(OS(=O)(=O)C=C3N)[C@H]2O[Si](C)(C)C(C)(C)C)c1=O | ROD | cytopathic effect / trypan blue |  | >300 µM
C1CNCCNCCCN[C@H]([C@H]2CNCCCNCCNCCCN2)CNC1 | ROD | cytopathic effect / MTT |  | 0.32 µg/mL
N#Cc1ccc(Nc2nccc(C(Cl)c3cccc(Br)c3)n2)cc1 | ROD | MTT |  | 30.4 µM
O=C1CSC(c2ccnc3ccccc23)N1Cc1ccco1 | ROD | cytopathic effect |  | 21.9 µM
CC(C)(C)[Si](C)(C)OC[C@H]1O[C@@H](n2ccc(=O)[nH]c2=O)[C@H](O[Si](C)(C)C(C)(C)C)C12OS(=O)(=O)C=C2N | ROD | cytopathic effect / trypan blue |  | >10 µM
CNc1ncnc2c1ncn2[C@@H]1O[C@H](CO[Si](C)(C)C(C)(C)C)C2(OS(=O)(=O)C=C2N)[C@H]1O[Si](C)(C)C(C)(C)C | ROD | trypan blue |  | >4 µg/mL
O=C(CSc1sc(Cl)nc1-c1ccc(Br)cc1Br)Nc1ccccc1Cl | ROD | MTT |  | >17.45 µM
Fc1cccc(F)c1C1SCc2nc3ccccc3n21 | ROD | cytopathic effect |  | >49 µM
Cc1cc(C#N)cc(C)c1Oc1ncc(NC(=O)C(F)(F)F)c(Nc2ccc(C#N)cc2)n1 | ROD | MTT |  | >276 µM
Nc1ccn([C@H]2CC[C@@H](CO)O2)c(=O)n1 | ROD | cytopathic effect / MTT |  | 0.058 µg/mL
C1CNCCNCCCN(CCCN2CCCNCCNCCCNCC2)CCNC1 | ROD | cytopathic effect / MTS |  | 8.95 µM

Repeating the final 7 entries:

smiles,strain or isolate,method,setting,value
CC(C)(C)[Si](C)(C)OC[C@H]1O[C@@H](n2ccc(=O)[nH]c2=O)[C@H](O[Si](C)(C)C(C)(C)C)C12OS(=O)(=O)C=C2N,ROD,cytopathic effect / trypan blue,,>10 µM
CNc1ncnc2c1ncn2[C@@H]1O[C@H](CO[Si](C)(C)C(C)(C)C)C2(OS(=O)(=O)C=C2N)[C@H]1O[Si](C)(C)C(C)(C)C,ROD,trypan blue,,>4 µg/mL
O=C(CSc1sc(Cl)nc1-c1ccc(Br)cc1Br)Nc1ccccc1Cl,ROD,MTT,,>17.45 µM
Fc1cccc(F)c1C1SCc2nc3ccccc3n21,ROD,cytopathic effect,,>49 µM
Cc1cc(C#N)cc(C)c1Oc1ncc(NC(=O)C(F)(F)F)c(Nc2ccc(C#N)cc2)n1,ROD,MTT,,>276 µM
Nc1ccn([C@H]2CC[C@@H](CO)O2)c(=O)n1,ROD,cytopathic effect / MTT,,0.058 µg/mL
C1CNCCNCCCN(CCCN2CCCNCCNCCCNCC2)CCNC1,ROD,cytopathic effect / MTS,,8.95 µM